Compound potency records, mixed from different reports. Data source: NIAID ChemDB in PubChem.

Common to all: growth or infection tests; organism: HIV-1

Conditions beyond the fields shown may differ between rows. Blank or dashed fields: not listed here. Two numbers with a dash give a range or band. ECn is the concentration giving n% inhibition of infection, replication or growth.

smiles	cells	endpoint	method	changes	strain	result
CC(C)(C)CNC(=O)[C@@H]1CN(C(C)(C)c2cc3cnccc3o2)CCN1C[C@@H](O)C[C@@H](Cc1ccccc1)C(=O)N[C@H]1c2ccccc2OC[C@H]1O	MT-4	EC50	p24		NL4-3	<0.031 µM
O=C(NCc1ccc(F)cc1)c1nc(N2CCCCS2(=O)=O)c2cccnc2c1O	PBMC	EC50	p24		89.6	<0.009 µM
CCc1c(O)cccc1C(=O)N[C@@H](Cc1ccccc1)[C@H](O)C(=O)N1CSC[C@H]1C(=O)NC(C)(C)C	MT-4	EC50			IIIB	1.46 µM
COC(=O)[C@H](C)NP(=O)(OC[C@H]1O[C@@H](n2cc(C)c(=O)[nH]c2=O)C[C@@H]1N=[N+]=[N-])Oc1ccc(Br)cc1	PBMC	EC50	RT activity		IIIB	0.001–0.004 µM
CC(C)(c1cc2cnccc2o1)N1CCN(C[C@@H](O)C[C@@H](Cc2ccccc2)C(=O)N[C@H]2c3ccccc3OC[C@H]2O)[C@H](C(=O)NC2CCCC2)C1	MT-4	EC50	p24		NL4-3	<0.008 µM
Cc1cn([C@H]2C[C@H](N=[N+]=[N-])[C@@H](CO)O2)c(=O)[nH]c1=O	PBMC	EC50	p24 / ELISA		BaL	0.018 µM
CCOP(=O)(O)C(F)OCCn1cnc2c(N)ncnc21	CEM + CEM-SS	EC50	XTT		RF	>100 µM
CC(C)=CC(=O)C[C@@H](C)[C@H]1CC[C@@]2(C)[C@@H]3CC[C@H]4C(C)(C)[C@@H](O)C[C@H](O)[C@@]45C[C@@]35CC[C@]12C	1A2	EC50	syncytia / β-galactosidase		MC99 deltaTAT/REV	14.2 µg/mL
O=C(CC1(O)C(=O)Nc2ccc(Br)cc21)c1ccccc1	C8166	EC50	cytopathic effect / syncytia		IIIB	9.82 µM
CCNC(=O)[C@@H]1CN(C(C)(C)c2cc3cnccc3o2)CCN1C[C@@H](O)C[C@@H](Cc1ccccc1)C(=O)N[C@H]1c2ccccc2OC[C@H]1O	MT-4	EC50	p24		NL4-3	<0.031 µM
CC(C)(C)NC(=O)[C@@H]1C[C@@H]2CCCC[C@@H]2CN1C[C@@H](O)[C@H](Cc1ccccc1)NC(=O)[C@H](CC(N)=O)NC(=O)c1ccc2ccccc2n1	MT-4	EC50	cytopathic effect / MTT		IIIB	0.0037 µg/mL
COc1cccc(C(=O)CC2(O)C(=O)Nc3ccc(Cl)cc32)c1	C8166	EC50	cytopathic effect / syncytia		IIIB	50.11 µM
Nc1ccn([C@H]2CC[C@@H](CO)O2)c(=O)n1	CEM	EC50	syncytia	RT-E138K	IIIB	0.03 µM
CCO/N=C(\c1ccc(Br)cc1)C1CCN(C2(C)CCN(C(=O)c3c(C)cc[n+]([O-])c3C)CC2)CC1	PBMC	EC90	p24 / ELISA		BaL	0.094 µM
Cc1cn([C@H]2C[C@H](N=[N+]=[N-])[C@@H](CO)O2)c(=O)[nH]c1=O	MT-2	EC50	RT activity		IIIB	0.06 µM
Cc1ccnc2c1NC(=O)c1cccnc1N2C1CC1	PBMC	EC50	p24 / ELISA		BaL	0.019 µM
Cc1ccnc2c1NC(=O)c1cccnc1N2C1CC1	MT-4	EC50	cytopathic effect / MTT		NL432	0.0068 µg/mL
Cc1cc(C)c(Oc2ncc(NC(=O)C(F)(F)F)c(Nc3ccc(C#N)cc3)n2)c(C)c1	MT-4	EC50	MTT		RES056	31.6 µM
O=C(CC1(O)C(=O)Nc2ccc(Cl)cc21)c1ccccc1Cl	C8166	EC50	p24 / ELISA	K103N		129 µM
CCc1c(O)cccc1C(=O)N[C@@H](Cc1ccccc1)[C@H](O)C(=O)N1CSC(C)(C)[C@H]1C(=O)NC(C)(C)C	MT-4	EC50			IIIB	0.54 µM
CC(C)(C)NC(=O)[C@@H]1CN(Cc2cccnc2)CCN1C[C@@H](O)C[C@@H](Cc1ccccc1)C(=O)N[C@H]1c2ccccc2C[C@H]1O	MT-4	EC50	cytopathic effect / MTT		IIIB	0.014 µg/mL
Cc1cccc(C(=O)CC2(O)C(=O)Nc3ccc(Br)cc32)c1	C8166	EC50	p24 / ELISA	K103N		>200 µM
Cc1c(O)cccc1C(=O)N[C@@H](Cc1ccccc1)[C@H](O)C(=O)N1CSC(C)(C)[C@H]1C(=O)NC(C)(C)C	MT-4	EC50			IIIB	0.15 µM
CC(C)(c1cc2cnccc2o1)N1CCN(C[C@@H](O)C[C@@H](Cc2ccccc2)C(=O)N[C@H]2c3ccccc3OC[C@H]2O)[C@H](C(=O)NCc2cccs2)C1	MT-4	EC95	p24		NL4-3	0.094 µM
CC(C)OC(=O)CNP(=O)(CO[C@@H]1C=C(F)[C@H](n2cnc3c(N)ncnc32)O1)NCC(=O)OC(C)C	MT-2	EC50	luminescence		IIIB	>2 µM
O=S(=O)(OC1/C(=C/c2ccco2)CNC/C1=C\c1ccco1)c1ccccc1	TZM-bl	EC50	luciferase / single cycle		HXB2	>101 µM
O=C(CC1(O)C(=O)Nc2ccccc21)c1ccccc1	C8166	EC50	cytopathic effect / syncytia		IIIB	260 µM
Cc1ccnc2c1NC(=O)c1cccnc1N2C1CC1	C8166	EC50	cytopathic effect / MTT		IIIB	0.04 µM
O=C(N[C@H]1c2ccccc2C[C@H]1O)[C@H](Cc1ccccc1)C[C@H](O)CN1CCN(Cc2cccnc2)C[C@H]1C(=O)NCC(F)(F)F	MT-4	EC50	p24		NL4-3	<0.062 µM
COc1ccccc1C(=O)CC1(O)C(=O)Nc2ccc(Br)cc21	C8166	EC50	p24 / ELISA	K103N		74.7 µM
OC1/C(=C/c2ccco2)CNC/C1=C\c1ccco1	TZM-bl	EC50	luciferase / single cycle		HXB2	>156 µM
C=C(CC[C@@H](C)[C@H]1CC[C@@]2(C)[C@@H]3CC[C@H]4[C@](C)(C(=O)O)[C@@H](O)CC(=O)[C@@]45C[C@@]35CC[C@]12C)C(C)C	1A2	EC50	syncytia / β-galactosidase		MC99 deltaTAT/REV	6.8 µg/mL
O=C(O[C@@H]1OC2CC(=O)c3cc(O)c(O)c(O)c3-c3c(cc(O)c(O)c3O)C(=O)OC2C2OC(=O)c3cc(O)c(O)c(O)c3-c3c(cc(O)c(O)c3O)C(=O)OC21)c1cc(O)c(O)c(O)c1	H9	EC50	p24		IIIB	21 µM
Cc1cn([C@@H]2O[C@H](CO[Si](C)(C)C(C)(C)C)[C@@]3(OS(=O)(=O)C=C3N)[C@H]2O[Si](C)(C)C(C)(C)C)c(=O)[nH]c1=O	CEM	EC50	syncytia	RT-E138K	IIIB	4.7 µM
Cc1c(O)cccc1C(=O)N[C@@H](Cc1ccccc1)[C@H](O)C(=O)N1CCC[C@H]1C(=O)NC(C)(C)C	MT-4	EC50			IIIB	1.97 µM
O=C(CC1(O)C(=O)Nc2ccc(Cl)cc21)c1ccc(F)cc1	C8166	EC50	cytopathic effect / syncytia		IIIB	59.58 µM
Cc1cc(C)cc(Sc2c(C(C)C)c(=O)[nH]c(=S)n2COCCO)c1	CEM	EC50	syncytia	RT-E138K	IIIB	0.04 µM
Cc1cc(C#N)cc(C)c1Oc1ncc(NC(=O)C(F)(F)F)c(Nc2ccc(C#N)cc2)n1	MT-4	EC50	MTT		IIIB	0.0375 µM
CO[C@H]1CC[C@H](C)N2C[C@H]1n1cc(C(=O)NCc3ccc(F)c(Cl)c3F)c(=O)c(O)c1C2=O	MT-4	EC50	luminescence		IIIB	0.001 µM
CC(C)(c1cc2cnccc2o1)N1CCN(C[C@@H](O)C[C@@H](Cc2ccccc2)C(=O)N[C@H]2c3ccccc3OC[C@H]2O)[C@H](C(=O)NC2CC2)C1	MT-4	EC95	p24		NL4-3	0.062 µM
Cc1cn([C@H]2C[C@H](N=[N+]=[N-])[C@@H](CO)O2)c(=O)[nH]c1=O	PBMC	EC50	ELISA	TC-2	Clinical isolate	0.0188 µM
C1CNCCNCCCN(CCCN2CCCNCCNCCCNCC2)CCNC1	MT-4	EC50	cytopathic effect / MTS		HE	0.495 µM
CC(C)=CCN1Cc2cc(Cl)cc3[nH]c(=S)n(c23)C[C@@H]1C	CEM + CEM-SS	EC50	cytopathic effect / MTT		G	0.188 µM
Cc1cn([C@H]2C[C@H](N=[N+]=[N-])[C@@H](CO)O2)c(=O)[nH]c1=O	MT-4	EC50	cytopathic effect / MTS		NL4-3	0.0052 µM
Fc1ccc(N=C2/C(=C/c3ccco3)CNC/C2=C\c2ccco2)c(F)c1	TZM-bl	EC50	luciferase / single cycle		HXB2	>109 µM
CC(C)=CCN1Cc2cc(Cl)cc3[nH]c(=S)n(c23)C[C@@H]1C	MT-4	EC50			IIIB	0.042 µM
Cc1cn([C@H]2CO[C@](CO)(CN=[N+]=[N-])C2)c(=O)[nH]c1=O	MT-4	EC50			IIIB	>100 µM
Cc1ccccc1Cc1cccc(C(=O)CC(=O)C(=O)O)c1		EC50	p24		NL4-3	0.562 µM
Cc1cc(C#N)cc(C)c1Oc1ncc(N)c(Nc2ccc(C#N)cc2)n1	MT-4	EC50	MTT		IIIB	0.0025 µM
Fc1ccc(N=C2/C(=C/c3ccco3)CNC/C2=C\c2ccco2)cc1	TZM-bl	EC50	luciferase / single cycle		HXB2	>115 µM
Nc1ncnc2c1ncn2CCOCP(=O)(O)O	CEM	EC50	syncytia	RT-E138K	IIIB	15 µM
CO[P@](=O)(c1cc(C)cc(/C=C/C#N)c1)c1c(C(N)=O)[nH]c2ccc(Cl)cc12		EC50			BH10	<0.0018 µM
CC(C)=CCN1Cc2cc(Cl)cc3[nH]c(=S)n(c23)C[C@@H]1C	CEM	EC50	syncytia		IIIB	0.06 µM
O=C(CC1(O)C(=O)Nc2ccc(Br)cc21)c1cccc(Br)c1	C8166	EC50	cytopathic effect / syncytia		IIIB	38.96 µM
Cc1ccnc2c1NC(=O)c1cccnc1N2C1CC1	CEM	EC50	syncytia	RT-E138K	IIIB	0.07 µM
C(=C1/CNC/C(=C\c2ccco2)C1=NNc1ccccc1)/c1ccco1	MT-2	EC50	p24 / ELISA		IIIB	2.1 µM